Data from patent publication US20030232325A1 (MOUNT SINAI SCHOOL OF MEDICINE OF NEW YORK UNIVERSITY, published 2003).

Target: NS1 protein of influenza A virus synthesized in vitro from pcDNA3-NS1 (coupled transcription/transla (influenza A virus))
Experiment: glutathione Sepharose pull-down of in vitro translated 35S-NS1

B1: GST protein (glutathione-S-transferase expressed from pGEX-5X-1) (other)
chain: MSPILGYWKIKGLVQPTRLLLEYLEEKYEEHLYERDEGDKWRNKKFELGLEFPNLPYYIDGDVKLTQSMAIIRYIADKHNMLGGCPKERAEISMLEGAVLDIRYGVSRIAYSKDFETLKVDFLSKLPEMLKMFEDRLCHKTYLNGDHVTHPDFMLYDALDVVLYMDPMCLDAFPKLVCFKKRIEAIPQIDKYLKSSKYIAWPLQGWQATFGGGDHPPK
binding result: no binding
